Results of unrelated studies side by side (data: NIAID ChemDB).

Shared fields: host cell toxicity; cell line: CEM; read-out: CC50

CCn: concentration that lowers growth or viability of the cells by n%.

smiles,read by,value
O=C(OC1CCCCC1)c1cc(NC(=S)c2ccsc2)ccc1Cl,-,4.1 µg/mL
Cc1c(Cl)ccc2cc(/C=C/C(=O)c3ccc(Cl)cc3)c(Cl)nc12,MTT,31.09 µM
Cn1ccc(C(=S)Nc2ccc(Cl)c(/C=N/OC(C)(C)C)c2)c1,-,13 µg/mL
CN[C@H](CC(C)C)C(=O)N[C@H]1C(=O)N[C@@H](CC(N)=O)C(=O)N[C@H]2C(=O)N[C@H]3C(=O)N[C@H](C(=O)N[C@H](C(=O)O)c4cc(O)c(CN5CCN(Cc6ccc(-c7ccccc7)cc6)CC5)c(O)c4-c4cc3ccc4O)[C@H](O)c3ccc(cc3)Oc3cc2cc(c3O)Oc2ccc(cc2Cl)[C@H]1O,-,>500 µM
C=C(C)[C@@H]1CC[C@]2(C(=O)NCCCCCCCC(=O)NC(F)CC(=O)O)CC[C@]3(C)[C@H](CC[C@@H]4[C@@]5(C)CC[C@H](O)C(C)(C)[C@@H]5CC[C@]43C)[C@@H]12,-,>3 µM
Cc1occc1C(=S)Nc1ccc(Cl)c(OC2CCCCC2)c1,-,5.3 µg/mL
O=c1ccn(C2CC(CO)(CO)C2)c(=O)[nH]1,-,>30 µg/mL
Nc1nc(Cl)nc2c1ncn2[C@H]1O[C@H](CO)[C@@H](F)[C@@H]1F,-,>100 µM
COc1ccccc1C(=S)Nc1ccc(Cl)c(C(=O)OC2CCCC2)c1,-,10 µg/mL
COCCOC(=O)C1C(c2ccc(F)cc2F)NC(=O)N(c2ccc(CC(=O)O)cc2)C1C,MTT,>72.3 µM
C=C(C)[C@@H]1CC[C@]2(C(=O)NCCCCCCCC(=O)NC(CC(=O)O)C(F)(F)F)CC[C@]3(C)[C@H](CC[C@@H]4[C@@]5(C)CC[C@H](O)C(C)(C)[C@@H]5CC[C@]43C)[C@@H]12,-,>3 µM
Nc1cc(O)c2cc(N=Nc3ccc(N=Nc4ccc(N=Nc5ccc6cc(S(=O)(=O)O)cc(S(=O)(=O)O)c6c5)c5ccccc45)c4cc(S(=O)(=O)O)ccc34)c(S(=O)(=O)O)cc2c1,-,>97 µM
CC(C)OC(=O)c1cc(NC(=S)c2ccsc2)ccc1Cl,-,4.3 µg/mL
C=C(C)[C@@H]1CC[C@]2(C(=O)NCCCCCCCC(=O)N(C)CC(=O)O)CC[C@]3(C)[C@H](CC[C@@H]4[C@@]5(C)CC[C@H](O)C(C)(C)[C@@H]5CC[C@]43C)[C@@H]12,-,>3 µM
Cc1csc(/C=C/c2cc3ccc(Cl)c(C)c3nc2Cl)c1,MTT,62.04 µM
CC(NC(=O)c1ccc2c(c1)C(=O)N(CCCN1CCOCC1)C2=O)c1ccc(F)cc1F,MTT,>72.7 µM
CCCCCCC(=O)Oc1ccc(COP(=O)(OCc2ccc(OC(=O)CCCCCC)cc2)OP(=O)(O)OC[C@@H]2C=C[C@H](n3cc(C)c(=O)[nH]c3=O)O2)cc1,-,85 µM
O=C1CSC(C23CC4CC(CC(C4)C2)C3)N1c1ccc(Cl)c(C(F)(F)F)c1,-,240 µM
C/C=C/COc1cc(NC(=S)c2ccoc2C)ccc1Cl,-,9 µg/mL
C=C(C)[C@@H]1CC[C@]2(C(=O)NCCCCCCCC(=O)NCCCC(=O)O)CC[C@]3(C)[C@H](CC[C@@H]4[C@@]5(C)CC[C@H](O)C(C)(C)[C@@H]5CC[C@]43C)[C@@H]12,-,>3 µM
Cc1sccc1C(=O)Nc1ccc(Cl)c(/C=N/OC(C)(C)C)c1,-,14 µg/mL
CCNC(=O)NC(=O)C(C)OC(=O)c1c2c(nc3ccccc13)C(Cc1ccc(OC)c(OC)c1)CC2,MTT,100 µM
CCCCCCCCCCCCCCCC(=O)Oc1ccc(COP(=O)(OCc2ccc(OC(=O)CCCCCCCCCCCCCCC)cc2)OP(=O)(O)OC[C@@H]2C=C[C@H](n3cc(C)c(=O)[nH]c3=O)O2)cc1,-,72 µM
Nc1nc2c(ncn2CCOCP(=O)(O)O)c(=O)[nH]1,neutral red,2.4 µM
Oc1ccc(O)cc1,-,<3 µg/mL
O=C(Cn1cnc2c(nnn2-c2ccccc2)c1=O)NCc1ccccc1F,MTT,15 µM
Cc1sccc1C(=S)Nc1ccc(Cl)c(/C=N/OC(C)(C)C)c1,-,12 µg/mL
C=C(C)[C@@H]1CC[C@]2(C(=O)NCCCCCCCC(=O)NC(C)(C)C(=O)O)CC[C@]3(C)[C@H](CC[C@@H]4[C@@]5(C)CC[C@H](O)C(C)(C)[C@@H]5CC[C@]43C)[C@@H]12,-,>3 µM
Nc1ncnc2c1ncn2[C@H]1O[C@H](CO)[C@@H](F)[C@@H]1F,-,>100 µM
C=C(C)[C@@H]1CC[C@]2(C(=O)NCCCCCCCC(=O)O)CC[C@]3(C)[C@H](CC[C@@H]4[C@@]5(C)CC[C@H](O)C(C)(C)[C@@H]5CC[C@]43C)[C@@H]12,-,>3 µM
Cc1nn(-c2cccc(C(F)(F)F)c2)c(C)c1C(=O)C(=O)N(C)CC(=O)Nc1cccc(F)c1,MTT,15 µM
Nc1ccc2cc(S(=O)(=O)O)cc(O)c2c1N=Nc1ccc(NC(=O)c2ccc(C(=O)Nc3ccc(N=Nc4c(N)ccc5cc(S(=O)(=O)O)cc(O)c45)c(S(=O)(=O)O)c3)cc2)cc1S(=O)(=O)O,-,18 µM
CCC1=C(C(=O)Nc2ccc(Cl)c(C(=O)OC3CCCCC3)c2)SCCO1,-,11.4 µg/mL
Cc1c(Cl)ccc2cc(/C=C/C(=O)c3ccc(Br)cc3)c(Cl)nc12,MTT,34.08 µM
C/C=C/COc1cc(NC(=S)c2ccsc2C)ccc1Cl,-,5.9 µg/mL
Nc1nc(=O)n([C@@H]2C=C[C@H](CO)O2)cc1F,-,6.5 µM
C=CCOc1cc(NC(=S)c2sccc2C)ccc1OC,-,7.1 µg/mL
O=S(=O)(O)c1cc2ccc1/C=C\c1ccc(cc1S(=O)(=O)O)N=Nc1ccc(c(S(=O)(=O)O)c1)/C=C\c1ccc(cc1S(=O)(=O)O)N=N2,-,>145 µM
CC(C)C(OC(=O)c1cc(NC(=S)c2ccc[nH]2)ccc1Cl)C(C)C,-,>100 µg/mL
O=S(=O)(O)c1ccc(N=Nc2ccc(N=Nc3ccc(/C=C/c4ccc(N=[N+]([O-])c5ccc(/C=C/c6ccc(N=Nc7ccc(N=Nc8ccc(S(=O)(=O)O)cc8)c8ccccc78)cc6S(=O)(=O)O)c(S(=O)(=O)O)c5)cc4S(=O)(=O)O)c(S(=O)(=O)O)c3)c3ccccc23)cc1,-,>16 µM
C=C(C)COC(=O)c1cc(NC(=S)c2ccoc2C)ccc1Cl,-,6.7 µg/mL
C=C(C)[C@@H]1CC[C@]2(C(=O)NCCCCCCCC(=O)NCC(C)C(=O)O)CC[C@]3(C)[C@H](CC[C@@H]4[C@@]5(C)CC[C@H](O)C(C)(C)[C@@H]5CC[C@]43C)[C@@H]12,-,>3 µM
COc1ccc(NC(=S)c2ccoc2C)cc1CC(=O)OC(C)C,-,>100 µg/mL
COc1ccc(C(=O)/C=C/c2cc3ccc(Cl)c(C)c3nc2Cl)cc1,MTT,31.9 µM
CCCCCCCCCCCC(=O)Oc1ccc(COP(=O)(OCc2ccc(OC(=O)CCCCCCCCCCC)cc2)OP(=O)(O)OC[C@@H]2C=C[C@H](n3cc(C)c(=O)[nH]c3=O)O2)cc1,-,39 µM
C#CCOc1cc(NC(=S)c2ccoc2C)ccc1Cl,-,18 µg/mL

5 of the rows above, restated:

C=C(C)[C@@H]1CC[C@]2(C(=O)NCCCCCCCC(=O)O)CC[C@]3(C)[C@H](CC[C@@H]4[C@@]5(C)CC[C@H](O)C(C)(C)[C@@H]5CC[C@]43C)[C@@H]12 ; value: >3 µM
Cc1c(Cl)ccc2cc(/C=C/C(=O)c3ccc(Cl)cc3)c(Cl)nc12 ; read by: MTT ; value: 31.09 µM
C=C(C)[C@@H]1CC[C@]2(C(=O)NCCCCCCCC(=O)NC(F)CC(=O)O)CC[C@]3(C)[C@H](CC[C@@H]4[C@@]5(C)CC[C@H](O)C(C)(C)[C@@H]5CC[C@]43C)[C@@H]12 ; value: >3 µM
C/C=C/COc1cc(NC(=S)c2ccsc2C)ccc1Cl ; value: 5.9 µg/mL
Nc1nc2c(ncn2CCOCP(=O)(O)O)c(=O)[nH]1 ; read by: neutral red ; value: 2.4 µM

An empty or dashed field is not shown. Conditions beyond the fields shown may differ between rows.